This note sets out measurements from US20190100761A1, “COMPOSITIONS AND METHODS FOR ENHANCED GENE EXPRESSION AND VIRAL REPLICATION” (priority 2016, published 2019).

The subject of the test is IAV strain PR8. Format: cell-based, influenza A virus.

On to “YTHDF2: human cytoplasmic m^6A reader protein, SEQ ID NO: 5, overexpressed in cells”, for which the “IAV viral protein levels” value was “far higher levels”.
